Source: patent US20040249122A1, “Cationic, amphipathic beta-sheet peptides and uses thereof” (priority 2003, published 2004)
Where a SMILES comes first, the peptide text is derived from it.

Assay: DSC, bilayer-to-hexagonal phase transition temperature (TH) of DiPoPE
Assay type: physicochemical

CC[C@H](C)[C@H](NC(=O)[C@H](CCCCN)NC(=O)CNC(=O)[C@H](C)NC(=O)[C@@H](NC(=O)[C@H](CCCCN)NC(=O)[C@H](C)NC(=O)[C@@H](NC(=O)[C@H](CCCCN)NC(=O)CNC(=O)[C@H](C)NC(=O)[C@@H](NC(=O)[C@H](CCCCN)NC(=O)[C@H](C)NC(=O)[C@@H](NC(=O)[C@H](CCCCN)NC(=O)CNC(=O)[C@H](C)NC(=O)[C@@H](NC(=O)[C@@H](N)CCCCN)[C@@H](C)CC)[C@@H](C)CC)[C@@H](C)CC)[C@@H](C)CC)[C@@H](C)CC)C(=O)N[C@@H](C)C(N)=O [(KIAGKIA)3-NH2, KIAGKIAKIAGKIAKIAGKIA -NH2, reference compound] (H-KIAGKIAKIAGKIAKIAGKIA-NH2; N-terminus assumed)
effect on TH of DiPoPE (in words) (DSC): negligible effect
Linear Regression: slope of TH vs. mole fraction of peptide (DiPoPE, Table 3): 132 ± 65
